# Laboratory results from PubChem BioAssay AID1845 (The Scripps Research Institute Molecular Screening Center, 2009).
# This is a selection; strong and weak results do not stand in their true shares. Activity calls are given as the source filed them. Cut-off read from the data, not from the text of the source: active = inhibition above about 37%; inactive = the rest.
# Assay: compounds displacing fluorescent DNA intercalator, primary screen, artefact control for HCV NS3 helicase inhibitor project, biochemical, FID fluorescence (AID 1845);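 note: 0% = vehicle and 100% = reference compound; higher means more ethidium bromide displaced from hairpin DNA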
# Conditions: DNA fluorescent intercalator displacement, at 7.9 µM, active compounds read high
row,SMILES,inhibition
1,CC(C)(C)OC(=O)N1CCC(N(C(=O)c2ccccc2)c2ccc(F)cc2)CC1,inactive: -31.3%
2,COc1ccc(C(=O)NCC2(N3CCCCC3)CCCCC2)c(OC)c1OC,inactive: 2.38%
3,O=C(NCC1(N2CCCCC2)CCCCC1)c1ccc(=O)[nH]c1,inactive: -0.81%
4,CCOC(=O)N1CCC(Nc2cccc(C)c2)CC1,inactive: -4.91%
5,COc1cc(C(=O)NCC2(N(C)C)CCCCC2)ccc1OC(F)F,inactive: 0.42%
6,Cc1ccc(OCC(C)C)c(CN(CCCl)CCCl)c1,inactive: 18.8%
7,O=C(NCC1(N2CCCCC2)CCCCC1)c1ccc(F)cc1,inactive: -2.79%
8,CCOC(=O)N1CCC(Nc2ccc(F)cc2)CC1,inactive: -2.14%
9,COc1ccc(NC2CCN(CCc3ccccc3)CC2)c(OC)c1,inactive: 11.3%
10,CCOc1ccc(C)cc1CN(CCCl)CCCl,inactive: 6.18%
11,O=C(NCC1(N2CCOCC2)CCCCC1)c1cc(=O)[nH]c2ccccc12,inactive: -7.11%
12,COc1cc(C(=O)NCC2(N3CCCCC3)CCCCC2)ccc1OC(F)F,inactive: 2.5%
13,COc1ccc(NC2CCN(C(=O)OC(C)(C)C)CC2)cc1,inactive: -6.08%
14,CN1CCN(CCOC(=O)C(O)(c2ccccc2)c2ccccc2)CC1,inactive: 4.31%
15,O=C(NCC1(N2CCCCC2)CCCCC1)c1cccc(C(F)(F)F)c1,inactive: 2.78%
16,CCN1CCC(Nc2ccc(Cl)cc2)CC1,inactive: 0.4%
17,N#CC1(Nc2ccccc2)CCN(CCc2ccccc2)CC1,inactive: 0.77%
18,O=C(NCC1(N2CCCCC2)CCCCC1)c1cccc([N+](=O)[O-])c1,inactive: 4.8%
19,O=C(NCC1(N2CCCCC2)CCCCC1)c1ccc(OC(F)F)cc1,inactive: -0.65%
20,CCCOc1ccc(C(=O)NCC2(N(C)C)CCCCC2)cc1OC,inactive: 3.48%
21,CN1CCC(Nc2cccc(F)c2)CC1,inactive: 12.3%
22,COc1cc(OC)c(C(=O)NCC2(N(C)C)CCCCC2)cc1OC,inactive: -0.64%
23,CC(C)c1ccc(NC2CCN(C(=O)OC(C)(C)C)CC2)cc1,inactive: -19.8%
24,COc1ccc(CN(CCCl)CCCl)cc1Cl,inactive: 2.02%
25,CN(C)c1cccc(C(=O)NCC2(N3CCCCC3)CCCCC2)c1,inactive: 6.24%
